A mixed list of measured activities; the numbers were collected in NIAID ChemDB.

Common to all: tests in culture; organism: Mycobacterium kansasii

Blank or dashed fields: not listed here. MIC50, MIC90 and the like: level of inhibition, or share of isolates inhibited. Lines come from different laboratories, so protocols vary. Zones are inhibition diameters on agar.

CCCN(CCC)C(=O)c1cc(C)cc(C(=O)N[C@@H](Cc2ccccc2)[C@H](O)CNCc2cccc(I)c2)c1 ; endpoint: zone ; tested at: 100 µg/disc ; strain or isolate: ATCC 35775 ; read by: agar diffusion ; result: 24 mm
Cc1cc(NS(=O)(=O)c2ccc(NC(=O)Nc3ccc(S(=O)(=O)Nc4cc(C)on4)cc3)cc2)no1 ; endpoint: MIC100 ; setting: 21 d ; strain or isolate: 6509/96 clinical isolate ; read by: broth dilution / absorbance ; result: 4 µM
O=C(Nc1ccc(Cl)c(Cl)c1)c1cc(Cl)ccc1OP(=O)(OCc1ccccc1)OCc1ccccc1 ; endpoint: MIC ; setting: 21 d ; strain or isolate: My 6509/96 ; result: 125 µM
CCCN(CCC)C(=O)c1cc(C)cc(C(=O)N[C@@H](Cc2cc(F)cc(F)c2)[C@H](O)CNCc2cccc(I)c2)c1 ; endpoint: zone ; tested at: 100 µg/disc ; strain or isolate: ATCC 35775 ; read by: agar diffusion ; result: 17 mm
O=C(Nc1ccc(Cl)cc1)c1cc(Cl)ccc1OP(=O)(Oc1ccccc1)Oc1ccccc1 ; endpoint: MIC ; setting: 7 d ; strain or isolate: My 235/80 ; result: 8 µM
NNC(=O)c1ccncc1 ; endpoint: MIC50 ; strain or isolate: 104 clinical isolates ; result: 2 µg/mL
CCCCCCNC(=O)Nc1ccc(S(=O)(=O)Nc2cc(C)on2)cc1 ; endpoint: MIC100 ; setting: 7 d ; strain or isolate: 235/80 ; read by: broth dilution / absorbance ; result: 250 µM
O=C(Nc1ccccc1)c1ccccc1OP(=O)(Oc1ccccc1)c1ccccc1 ; endpoint: MIC ; setting: 21 d ; strain or isolate: My 6509/96 ; result: 500 µM
Cc1cc(NS(=O)(=O)c2ccc(NC(=O)N3CCC3)cc2)no1 ; endpoint: MIC100 ; setting: 7 d ; strain or isolate: 6509/96 clinical isolate ; read by: broth dilution / absorbance ; result: 8 µM
O=C(N[C@H]([C@H](O)CNCc1cccc(I)c1)C(F)(F)c1ccccc1)OCc1ccccc1 ; endpoint: zone ; tested at: 50 µg/disc ; strain or isolate: 262 ; read by: agar diffusion ; result: 11 mm
CCCCCCCNC(=O)Nc1ccc(S(=O)(=O)Nc2cc(C)on2)cc1 ; endpoint: MIC100 ; setting: 21 d ; strain or isolate: 235/80 ; read by: broth dilution / absorbance ; result: 16 µM
CC[C@@H](CO)NCCN[C@@H](CC)CO ; endpoint: zone ; tested at: 100 µg/disc ; strain or isolate: ATCC 35775 ; read by: agar diffusion ; result: 50 mm
O=C1c2ccccc2OP(=O)(c2ccccc2)N1c1ccccc1 ; endpoint: MIC ; setting: 14 d ; strain or isolate: My 6509/96 ; result: 500 µM
CCCN(CCC)C(=O)c1cc(C)cc(C(=O)N[C@@H]([C@@H](O)CNCc2cccc(I)c2)C(F)(F)c2ccccc2)c1 ; endpoint: zone ; tested at: 100 µg/disc ; strain or isolate: 262 ; read by: agar diffusion ; result: 0 mm
O=C(Nc1ccc(Cl)cc1)c1cc(Cl)ccc1OP(=O)(Oc1ccccc1)c1ccccc1 ; endpoint: MIC ; setting: 14 d ; strain or isolate: My 6509/96 ; result: 8 µM
CCNC(=O)Nc1ccc(S(=O)(=O)Nc2cc(C)on2)cc1 ; endpoint: MIC100 ; setting: 21 d ; strain or isolate: 235/80 ; read by: broth dilution / absorbance ; result: 250 µM

For reference, 2 entries again:

SMILES,endpoint,tested at,setting,strain or isolate,read by,result
CCNC(=O)Nc1ccc(S(=O)(=O)Nc2cc(C)on2)cc1,MIC100,-,21 d,235/80,broth dilution / absorbance,250 µM
CCCCCCNC(=O)Nc1ccc(S(=O)(=O)Nc2cc(C)on2)cc1,MIC100,-,7 d,235/80,broth dilution / absorbance,250 µM